Experimental data as given in patent US20240226228A1, “ANTIMICROBIAL PEPTOID HAVING IMPROVED SELECTIVITY AND ANTIMICROBIAL COMPOSITION COMPRISING SAME” (priority 2021, published 2024).

Test system: red blood cells / E. coli
Test: Analysis of selectivity of peptoid (HD10 divided by MIC against E. coli)
Conditions: HD10 divided by MIC against E. coli

Structure (SMILES)	Selectivity
C[C@@H](c1ccccc1)N(CC(N)=O)C(=O)CN(CCCCN)C(=O)CN(CCCCN)C(=O)CN(C(=O)CN(C(=O)CN(CCCCN)C(=O)CN(C(=O)CN(C(=O)CN(CCCCN)C(=O)CN(CCc1c[nH]c2ccccc12)C(=O)CN(CCc1c[nH]c2ccccc12)C(=O)CNCCc1c[nH]cn1)[C@@H](C)c1ccccc1)[C@@H](C)c1ccccc1)[C@@H](C)c1ccccc1)[C@@H](C)c1ccccc1 [Peptoid 72] (H-[Gly(N-CH2CH2-imidazol-4-yl)][Gly(N(CH2)2(3-indolyl))][Gly(N(CH2)2(3-indolyl))][Nlys][Nspe][Nspe][Nlys][Nspe][Nspe][Nlys][Nlys][Nspe]-NH2)	14.1
C[C@@H](c1ccccc1)N(CC(N)=O)C(=O)CN(CCCCN)C(=O)CN(CCCCN)C(=O)CN(C(=O)CN(C(=O)CN(CCCCN)C(=O)CN(C(=O)CN(C(=O)CN(CCc1c[nH]cn1)C(=O)CN(CCc1c[nH]c2ccccc12)C(=O)CN(CCc1c[nH]c2ccccc12)C(=O)CNCCCCN)[C@@H](C)c1ccccc1)[C@@H](C)c1ccccc1)[C@@H](C)c1ccccc1)[C@@H](C)c1ccccc1 [Peptoid 73] (H-[Nlys][Gly(N(CH2)2(3-indolyl))][Gly(N(CH2)2(3-indolyl))][Gly(N-CH2CH2-imidazol-4-yl)][Nspe][Nspe][Nlys][Nspe][Nspe][Nlys][Nlys][Nspe]-NH2)	>15.9
C[C@@H](c1ccccc1)N(CC(N)=O)C(=O)CN(CCCCN)C(=O)CN(CCCCN)C(=O)CN(C(=O)CN(C(=O)CN(CCc1c[nH]cn1)C(=O)CN(C(=O)CN(C(=O)CN(CCCCN)C(=O)CN(CCc1c[nH]c2ccccc12)C(=O)CN(CCc1c[nH]c2ccccc12)C(=O)CNCCCCN)[C@@H](C)c1ccccc1)[C@@H](C)c1ccccc1)[C@@H](C)c1ccccc1)[C@@H](C)c1ccccc1 [Peptoid 74] (H-[Nlys][Gly(N(CH2)2(3-indolyl))][Gly(N(CH2)2(3-indolyl))][Nlys][Nspe][Nspe][Gly(N-CH2CH2-imidazol-4-yl)][Nspe][Nspe][Nlys][Nlys][Nspe]-NH2)	13
C[C@@H](c1ccccc1)N(CC(N)=O)C(=O)CN(CCCCN)C(=O)CN(CCc1c[nH]cn1)C(=O)CN(C(=O)CN(C(=O)CN(CCCCN)C(=O)CN(C(=O)CN(C(=O)CN(CCCCN)C(=O)CN(CCc1c[nH]c2ccccc12)C(=O)CN(CCc1c[nH]c2ccccc12)C(=O)CNCCCCN)[C@@H](C)c1ccccc1)[C@@H](C)c1ccccc1)[C@@H](C)c1ccccc1)[C@@H](C)c1ccccc1 [Peptoid 75] (H-[Nlys][Gly(N(CH2)2(3-indolyl))][Gly(N(CH2)2(3-indolyl))][Nlys][Nspe][Nspe][Nlys][Nspe][Nspe][Gly(N-CH2CH2-imidazol-4-yl)][Nlys][Nspe]-NH2)	10.8
C[C@@H](c1ccccc1)N(CC(N)=O)C(=O)CN(CCc1c[nH]cn1)C(=O)CN(CCCCN)C(=O)CN(C(=O)CN(C(=O)CN(CCCCN)C(=O)CN(C(=O)CN(C(=O)CN(CCCCN)C(=O)CN(CCc1c[nH]c2ccccc12)C(=O)CN(CCc1c[nH]c2ccccc12)C(=O)CNCCCCN)[C@@H](C)c1ccccc1)[C@@H](C)c1ccccc1)[C@@H](C)c1ccccc1)[C@@H](C)c1ccccc1 [Peptoid 76] (H-[Nlys][Gly(N(CH2)2(3-indolyl))][Gly(N(CH2)2(3-indolyl))][Nlys][Nspe][Nspe][Nlys][Nspe][Nspe][Nlys][Gly(N-CH2CH2-imidazol-4-yl)][Nspe]-NH2)	>15.9

Same assay, conditions: Tables 11-13

Structure (SMILES)	Selectivity [HD10/MIC (E. coli)]
C[C@@H](c1ccccc1)N(CC(N)=O)C(=O)CN(C(=O)CN(CCCCN)C(=O)CN(C(=O)CN(C(=O)CN(CCCCN)C(=O)CN(C(=O)CN(C(=O)CN(CCCCN)C(=O)CN(C(=O)CN(C(=O)CN(CCCCN)C(=O)CNCCc1c[nH]c2ccccc12)[C@@H](C)c1ccccc1)[C@@H](C)c1ccccc1)[C@@H](C)c1ccccc1)[C@@H](C)c1ccccc1)[C@@H](C)c1ccccc1)[C@@H](C)c1ccccc1)[C@@H](C)c1ccccc1 [Peptoid 3]	1
C[C@@H](c1ccccc1)N(CC(=O)N(CCCCN)CC(=O)N(CC(=O)N(CC(=O)N(CCCCN)CC(=O)N(CC(=O)N(CC(=O)N(CCCCN)CC(=O)N(CC(=O)N(CC(=O)N(CCc1c[nH]c2ccccc12)CC(N)=O)[C@@H](C)c1ccccc1)[C@@H](C)c1ccccc1)[C@@H](C)c1ccccc1)[C@@H](C)c1ccccc1)[C@@H](C)c1ccccc1)[C@@H](C)c1ccccc1)C(=O)CN(C(=O)CNCCCCN)[C@@H](C)c1ccccc1 [Peptoid 4] (H-[Nlys][Nspe][Nspe][Nlys][Nspe][Nspe][Nlys][Nspe][Nspe][Nlys][Nspe][Nspe][Gly(N(CH2)2(3-indolyl))]-NH2)	<0.5
C[C@@H](c1ccccc1)N(CC(=O)N(CCCCN)CC(=O)N(CC(=O)N(CC(=O)N(CCCCN)CC(=O)N(CC(=O)N(CC(=O)N(CCCCN)CC(=O)N(CC(=O)N(CC(=O)N(CCc1c[nH]c2ccccc12)CC(N)=O)[C@@H](C)c1ccccc1)[C@@H](C)c1ccccc1)[C@@H](C)c1ccccc1)[C@@H](C)c1ccccc1)[C@@H](C)c1ccccc1)[C@@H](C)c1ccccc1)C(=O)CN(C(=O)CN(CCCCN)C(=O)CNCCc1c[nH]c2ccccc12)[C@@H](C)c1ccccc1 [Peptoid 5] (H-[Gly(N(CH2)2(3-indolyl))][Nlys][Nspe][Nspe][Nlys][Nspe][Nspe][Nlys][Nspe][Nspe][Nlys][Nspe][Nspe][Gly(N(CH2)2(3-indolyl))]-NH2)	<0.3
C[C@@H](c1ccccc1)N(CC(N)=O)C(=O)CN(C(=O)CN(CCCCN)C(=O)CN(C(=O)CN(C(=O)CN(CCCCN)C(=O)CN(C(=O)CN(C(=O)CN(CCCCN)C(=O)CN(C(=O)CN(C(=O)CN(CCCCN)C(=O)CN(CCc1c[nH]c2ccccc12)C(=O)CNCCc1c[nH]c2ccccc12)[C@@H](C)c1ccccc1)[C@@H](C)c1ccccc1)[C@@H](C)c1ccccc1)[C@@H](C)c1ccccc1)[C@@H](C)c1ccccc1)[C@@H](C)c1ccccc1)[C@@H](C)c1ccccc1 [Peptoid 6]	0.4
C[C@@H](c1ccccc1)N(CC(N)=O)C(=O)CN(C(=O)CN(CCCCN)C(=O)CN(C(=O)CN(CCCCN)C(=O)CN(CCCCN)C(=O)CN(C(=O)CN(C(=O)CN(CCCCN)C(=O)CN(C(=O)CN(C(=O)CN(CCCCN)C(=O)CN(CCc1c[nH]c2ccccc12)C(=O)CNCCc1c[nH]c2ccccc12)[C@@H](C)c1ccccc1)[C@@H](C)c1ccccc1)[C@@H](C)c1ccccc1)[C@@H](C)c1ccccc1)[C@@H](C)c1ccccc1)[C@@H](C)c1ccccc1 [Peptoid 35]	6.6
C[C@@H](c1ccccc1)N(CC(N)=O)C(=O)CN(C(=O)CN(CCCCN)C(=O)CN(C(=O)CN(C(=O)CN(CCCCN)C(=O)CN(C(=O)CN(C(=O)CN(CCCCN)C(=O)CN(C(=O)CN(CCCCN)C(=O)CN(CCCCN)C(=O)CN(CCc1c[nH]c2ccccc12)C(=O)CNCCc1c[nH]c2ccccc12)[C@@H](C)c1ccccc1)[C@@H](C)c1ccccc1)[C@@H](C)c1ccccc1)[C@@H](C)c1ccccc1)[C@@H](C)c1ccccc1)[C@@H](C)c1ccccc1 [Peptoid 36]	4.9
C[C@@H](c1ccccc1)N(CC(=O)N(CCCCN)CC(=O)N(CC(=O)N(CC(=O)N(CCCCN)CC(=O)N(CC(=O)N(CC(=O)N(CCCCN)CC(=O)N(CC(=O)N(CC(=O)N(CC(N)=O)Cc1ccccc1)[C@@H](C)c1ccccc1)[C@@H](C)c1ccccc1)[C@@H](C)c1ccccc1)[C@@H](C)c1ccccc1)[C@@H](C)c1ccccc1)[C@@H](C)c1ccccc1)C(=O)CN(C(=O)CN(CCCCN)C(=O)CNCc1ccccc1)[C@@H](C)c1ccccc1 [Peptoid 42] (H-[Nphe][Nlys][Nspe][Nspe][Nlys][Nspe][Nspe][Nlys][Nspe][Nspe][Nlys][Nspe][Nspe][Nphe]-NH2)	<0.1
C[C@@H](c1ccccc1)N(CC(N)=O)C(=O)CN(C(=O)CN(CCCCN)C(=O)CN(C(=O)CN(C(=O)CN(CCCCN)C(=O)CN(C(=O)CN(C(=O)CN(CCCCN)C(=O)CN(C(=O)CN(C(=O)CN(CCCCN)C(=O)CN(Cc1ccccc1)C(=O)CNCc1ccccc1)[C@@H](C)c1ccccc1)[C@@H](C)c1ccccc1)[C@@H](C)c1ccccc1)[C@@H](C)c1ccccc1)[C@@H](C)c1ccccc1)[C@@H](C)c1ccccc1)[C@@H](C)c1ccccc1 [Peptoid 43]	<0.2
C[C@@H](c1ccccc1)N(CC(N)=O)C(=O)CN(CCCCN)C(=O)CN(C(=O)CN(C(=O)CN(CCCCN)C(=O)CN(C(=O)CN(C(=O)CN(CCCCN)C(=O)CN(C(=O)CN(CCCCN)C(=O)CN(CCCCN)C(=O)CN(C(=O)CNCCc1c[nH]c2ccccc12)[C@@H](C)c1ccccc1)[C@@H](C)c1ccccc1)[C@@H](C)c1ccccc1)[C@@H](C)c1ccccc1)[C@@H](C)c1ccccc1)[C@@H](C)c1ccccc1 [Peptoid 61]	3.1
C[C@@H](c1ccccc1)N(CC(N)=O)C(=O)CN(CCCCN)C(=O)CN(C(=O)CN(C(=O)CN(CCCCN)C(=O)CN(C(=O)CN(CCCCN)C(=O)CN(CCCCN)C(=O)CN(C(=O)CN(C(=O)CN(CCCCN)C(=O)CN(C(=O)CNCCc1c[nH]c2ccccc12)[C@@H](C)c1ccccc1)[C@@H](C)c1ccccc1)[C@@H](C)c1ccccc1)[C@@H](C)c1ccccc1)[C@@H](C)c1ccccc1)[C@@H](C)c1ccccc1 [Peptoid 62]	5.7
C[C@@H](c1ccccc1)N(CC(N)=O)C(=O)CN(CCCCN)C(=O)CN(C(=O)CN(CCCCN)C(=O)CN(CCCCN)C(=O)CN(C(=O)CN(C(=O)CN(CCCCN)C(=O)CN(C(=O)CN(C(=O)CN(CCCCN)C(=O)CN(C(=O)CNCCc1c[nH]c2ccccc12)[C@@H](C)c1ccccc1)[C@@H](C)c1ccccc1)[C@@H](C)c1ccccc1)[C@@H](C)c1ccccc1)[C@@H](C)c1ccccc1)[C@@H](C)c1ccccc1 [Peptoid 63]	6.8
C[C@@H](c1ccccc1)N(CC(=O)N(CCCCN)CC(=O)N(CC(=O)N(CC(=O)N(CCCCN)CC(=O)N(CC(=O)N(CC(=O)N(CCCCN)CC(=O)N(CC(=O)N(CC(=O)N(CCCCN)CC(=O)N(CCCCN)CC(N)=O)[C@@H](C)c1ccccc1)[C@@H](C)c1ccccc1)[C@@H](C)c1ccccc1)[C@@H](C)c1ccccc1)[C@@H](C)c1ccccc1)[C@@H](C)c1ccccc1)C(=O)CNCCc1c[nH]c2ccccc12 [Peptoid 64] (H-[Gly(N(CH2)2(3-indolyl))][Nspe][Nlys][Nspe][Nspe][Nlys][Nspe][Nspe][Nlys][Nspe][Nspe][Nlys][Nlys]-NH2)	5.7

Where a SMILES comes first, the peptide text is derived from it. [ ]: non-standard residue; d: D form. Gly(N(CH2)2(3-indolyl)) = O=C(O)CNCCc1c[nH]c2ccccc12; Gly(N-CH2CH2-imidazol-4-yl) = O=C(O)CNCCc1c[nH]cn1; Nspe = C[C@H](NCC(=O)O)c1ccccc1; Nphe = O=C(O)CNCc1ccccc1; Nlys = NCCCCNCC(=O)O
